Marks after values point to notes of the source that are not given here.
Target: T1, HIV-1 protease (Human immunodeficiency virus type 1 group M subtype B, UniProt P04585)
T1 construct: HIV-1 protease enzyme (Sigma Aldrich); purchased Sigma Aldrich
Test: HIV-1 protease inhibition assay (fluorescent substrate)
Assay type: biochemical
Details: 10 μM compounds dissolved in DMSO
Experimental: HIV-1 protease inhibition was performed by using a previously described method. HIV protease fluorescent substrate and HIV-1 protease enzyme (Sigma Aldrich) were used to determine HIV inhibition capacity of sample. Three primary controls i.e., blank, sample and positive control were used. Reaction mixture of 200 µL comprised of five enzyme units (5U) of HIV-1 protease along with 0.5 pmol of enzyme substrate. After addition of both enzymes and substrates, test compounds were added in different concentrations. Reaction mixture was incubated at 37 °C which leads to generation of fluorescence signal by cleaving Tyr-Pro peptide bond of the substrate. Finally reaction mixture was heated for 5 minutes at 90 °C to stop the reaction. The mixture was centrifuged at 12,000 rpm for 3 min. and supernatant was used to measure the fluorescence signal. The enzyme inhibition was calculated using the Equation (1).

(1E,6E)-1,7-bis(4-hydroxy-3-methoxyphenyl)-1,6-heptadiene-3,5-dione [Curcumin]
% Enzyme Inhibition HIV-I protease: 48.3 ^c %

Source: paper PMC6270194, “Curcumin and Its Carbocyclic Analogs: Structure-Activity in Relation to Antioxidant and Selected Biological Properties” (Molecules, 2013)
